# Data published in paper PMC10989010, “A panel of janus kinase inhibitors identified with anti-inflammatory effects protect mice from lethal influenza virus infection” (Antimicrobial Agents and Chemotherapy, 2024).
# Test system: IL-8
# Assay: U937 cell-based anti-inflammatory assay for influenza virus infection, IL-8 production (AlphaLISA)
# Parameters: species or system human
# Conditions: ratio of CC50/IC50
# Description: U937 cells were seeded in a 96-well culture plate at a density of 1.5 × 10^5 cells per well and incubated for 24 hours prior to virus infection. Subsequently, the cells in each well were infected with the PR8 virus at a multiplicity of infection of 0.05 and treated with serially diluted drugs or left untreated as a control. The drugs were serially diluted threefold, starting from an initial concentration of 200 µM down to 0.01 µM. […] Following this incubation, the supernatants were collected and subjected to AlphaLISA analysis to determine IL-8, IP-10, and MCP1 protein levels.
# The AlphaLISA detection kits employed in this study were IL-8 (PerkinElmer AL224), IP-10 (PerkinElmer AL259), and MCP1 (PerkinElmer, AL244). U937 cell culture supernatants were measured for IL-8, IP-10, and MCP-1 protein levels using AlphaLISA assay as per the manufacturer’s recommendations. The ELISA and AlphaLISA plates were read using the Varioskan LUX multimode microplate reader (Thermo Scientiﬁc, Waltham, MA, USA).
row,Compound,SI IL-8
1,Cc1cc(Nc2nc(N[C@@H](C)c3ccc(F)cc3)c(C#N)cc2F)[nH]n1 [AZ 960],">1,200"
2,Cc1cc(Nc2nc(N[C@@H](C)c3ncc(F)cn3)ncc2Cl)n[nH]1 [AZD1480],12
3,CN1CCN(c2cccc(Nc3nc4c(-c5ccc(S(C)(=O)=O)cc5)cccn4n3)c2)CC1 [CEP-33779],29
4,CCS(=O)(=O)N1CCN(c2ccc(Nc3ncc(C(N)=O)c(NC4CC4)n3)cc2)CC1 [Cerdulatinib hydrochloride],>700
5,Cc1cc(Nc2cc(CN3CCOCC3)c3nc(C)c(Cc4ccc(Cl)cc4F)n3n2)n[nH]1 [Gandotinib],">5,200"
6,N#CCNC(=O)c1ccc(-c2ccnc(Nc3ccc(N4CCOCC4)cc3)n2)cc1 [Momelotinib],18
7,CNS(=O)(=O)C[C@H]1CC[C@H](N(C)c2ncnc3[nH]ccc23)CC1 [Oclacitinib maleate],"1,000"
8,NC(=O)c1cnc2[nH]ccc2c1N[C@@H]1[C@@H]2CC3C[C@H]1C[C@@](O)(C3)C2 [Peficitinib],"3,470"
9,N#CC[C@H](C1CCCC1)n1cc(-c2ncnc3[nH]ccc23)cn1 [Ruxolitinib],833
10,N#CC[C@@H](C1CCCC1)n1cc(-c2ncnc3[nH]ccc23)cn1 [S-Ruxolitinib],"3,333"
11,O=C(Nc1ccc(-c2ccnc(Nc3ccc(N4CCOCC4)cc3)n2)cc1)C1CCCN1 (centres unmarked) [XL019],52

# Where a name gives a salt, the structure may show the parent alone.
